A mixed list of measured activities; the numbers were collected in NIAID ChemDB.

All rows: whole-cell or culture tests; species: HIV-1; endpoint: fold resistance

An empty or dashed field is not shown. Neighbouring rows are from separate reports. Fold resistance has wild type as its base.

smiles,read by,changes,strain or isolate,cell line,result
CC(C)Nc1cccnc1N1CCN(C(=O)c2cc3cc(NS(C)(=O)=O)ccc3[nH]2)CC1,p24,RT-L74V G190E,A2(RT-L74V G190E),H9,48.3
O=c1[nH]cnc2c1ncn2[C@H]1CC[C@@H](CO)O1,p24,RT-F116Y,Recombinant,PBMC,0.15
Cc1cn([C@H]2C=C[C@@H](CO)O2)c(=O)[nH]c1=O,cytopathic effect / XTT,RT-K65R,Site-directed mutant,MT-2,2.2
C[C@H](Cn1cnc2c(N)ncnc21)OCP(=O)(O)O,p24,RT-G48V L90M,Saquinavir-resistant (G48V L90M),MT-2,0.565
O=c1[nH]cnc2c1ncn2[C@H]1CC[C@@H](CO)O1,syncytia,RT-L100I Y188H,IIIB TIBO R82913 STR-B22 (RT L100I Y188H),CEM,1.6
Cc1cn([C@H]2C[C@H](N=[N+]=[N-])[C@@H](CO)O2)c(=O)[nH]c1=O,cytopathic effect / XTT,RT-Y181C,NL4-3,CEM + CEM-SS,10
Cn1c2ccccc2c2c1cc(C#N)c(=O)n2-c1ccc([N+](=O)[O-])cc1,luciferase,RT-V75I F77L F116Y Q151M,NRTI resistant,HeLa,0.9
CC(C)Oc1ccc(Cc2ccccc2)cc1C(=O)CC(=O)C(=O)O,-,INTG-T66I N155S,-,-,94
CC(C)=CCN1Cc2cc(Cl)cc3[nH]c(=S)n(c23)C[C@@H]1C,syncytia,RT-L100I,IIIB TIBO R82150-resistant (RT L100I),CEM,85
CC(C)=CCN1Cc2cccc3[nH]c(=S)n(c23)C[C@@H]1C,XTT,RT-L100I,Dihydrocostatolide-resistant (RT-L100I),CEM + CEM-SS,117
Cc1cn([C@@H]2O[C@H](CO[Si](C)(C)C(C)(C)C)C3(OS(=O)(=O)C=C3N)[C@H]2O[Si](C)(C)C(C)(C)C)c(=O)n(C)c1=O,syncytia,RT-L100I Y181C,IIIB TIBO R82913 STR-1 (RT L100I Y181C),CEM,>1670
Cc1occc1C(=S)Nc1ccc(Cl)c(/C=N/OC(C)(C)C)c1,cytopathic effect / XTT,RT-Y188C,NL4-3 (RT Y188C),CEM + CEM-SS,5
CCN[C@H]1CO[C@@H]2OCC[C@H](OC(=O)N[C@@H](Cc3cccc(OC)c3)[C@H](O)CN(CC(C)C)S(=O)(=O)c3ccc4nc(NC(C)C)sc4c3)[C@@H]21,p24 / luminescence,L10I I54V K20R L24I V32I L33F M36I M46I I54M L63P K70Q V82I I84V L89M,NL4-3,MT-4,26
CC(C)Nc1cccnc1N1CCN(C(=O)c2cc3cc(NS(C)(=O)=O)ccc3[nH]2)CC1,cytopathic effect,RT-K103N Y144F,P-1 (RT-K103N Y144F),CEM,423
Nc1nc2c(ncn2[C@H]2CO[C@@H](CO)O2)c(=O)[nH]1,-,RT-K65R F116Y Q151M,RT-65R 116Y 151M,-,39
Cc1cn([C@H]2C[C@H](N=[N+]=[N-])[C@@H](CO)O2)c(=O)[nH]c1=O,luciferase,RT-K65R,NRTI resistant,HeLa,0.6
Cc1cn([C@H]2C=C[C@@H](CO)O2)c(=O)[nH]c1=O,p24,RT-Q151M,Recombinant,PBMC,0.025
CC(C)(C)C(=O)c1sc(C(=O)NCc2ccccc2)c(O)c1O,-,INTG-Q148K,-,-,1
COc1ccc(S(=O)(=O)N(CC(C)C)C[C@@H](O)[C@H](Cc2ccccc2)NC(=O)O[C@H]2CCO[C@H]3OCC[C@H]32)cc1,p24 / luminescence,L10I I15V K20R L24I V32I M36I M46I I54V I62V L63P K70Q V82A L88M,NL4-3,MT-4,97
CCN(c1nc(F)ccc1NC(C)(C)C)C1CCN(C(=O)c2cc3cc(NC(=O)N4CCN(C)CC4)ccc3[nH]2)CC1,p24 / ELISA,R41K,IIIB,MT-2,1.4
Cc1ccnc2c1NC(=O)c1cccnc1N2C1CC1,XTT,RT-T139I,NL4-3,CEM + CEM-SS,0.1
Cc1ccc(S(=O)(=O)N(CC(C)C)C[C@@H](O)[C@H](Cc2ccccc2)NC(=O)O[C@H]2CO[C@H]3OCC[C@H]32)cc1,p24 / ELISA,L441P,IIIB,MT-2,1.2
Cc1cc(S(N)(=O)=O)ccc1NC(=O)COc1ccc(Cl)cc1C(=O)c1cc(Cl)cc(C#N)c1,β-galactosidase,RT-K103N P225H,NNRTI-resistant (RT K103N P225H),MAGI,1.35
Cc1c(Sc2ccccc2)n(COCCO)c(=O)[nH]c1=O,cytopathic effect / XTT,RT-V108I,IIIB,CEM + CEM-SS,>18
CC(C)c1nc(CN(C)C(=O)N[C@H](C(=O)N[C@@H](Cc2ccccc2)C[C@H](O)[C@H](Cc2ccccc2)NC(=O)OCc2cncs2)C(C)C)cs1,p24,PR-N88D,NL4-3,MT-4,0.2
Cc1cn([C@H]2C[C@H](N=[N+]=[N-])[C@@H](CO)O2)c(=O)[nH]c1=O,-,IN-T66I S153Y N155S,-,-,1
CC[C@H]1C(=O)Nc2ccc(F)cc2N1C(=O)OC(C)C,cytopathic effect,RT-V106A,E-2 (RT-V106A),CEM,10
CC(C)=CCN1Cc2cccc3[nH]c(=S)n(c23)C[C@@H]1C,syncytia,RT-L100I E138K,IIIB TIBO R82913 STR-B02 (RT L100I E138K),CEM,250
CN[C@H]1CO[C@@H]2OCC[C@H](OC(=O)N[C@@H](Cc3cccc(OC)c3)[C@H](O)CN(CC(C)C)S(=O)(=O)c3ccc4nc(NC(C)C)sc4c3)[C@@H]21,p24 / luminescence,L10F K20T D30N K45I A71V V77I,NL4-3,MT-4,2
O=c1[nH]cnc2c1ncn2[C@H]1CC[C@@H](CO)O1,plaque count,RT-D67N T69D L210W T215Y,JF20 (RT D67N T69D L210W T215Y),HELA-CD4+,1.5
Cc1cn([C@@H]2O[C@H](CO[Si](C)(C)C(C)(C)C)[C@@]3(OS(=O)(=O)C=C3N)[C@H]2O[Si](C)(C)C(C)(C)C)c(=O)[nH]c1=O,cytopathic effect / XTT,RT-Y181C K101E,UC10-resistant (RT Y181C K101E),CEM + CEM-SS,>200
N#Cc1cc2[nH]c3ccccc3c2n(-c2ccc([N+](=O)[O-])cc2)c1=O,luciferase,RT-V106I Y188L,NNRTI-resistant,HeLa,0.4
Cc1ccnc2c1NC(=O)c1cccnc1N2C1CC1,cytopathic effect / XTT,RT-A98G,NL4-3 (RT A98G),CEM + CEM-SS,10
CC(C)=CCN1c2cc(Cl)cc3[nH]c(=S)n(c23)C[C@@H]1C,-,RT-D67N K70R T215Y K219Q L100I,-,MT-4,2
CC(C)CN(C[C@@H](O)[C@H](Cc1ccccc1)NC(=O)[C@H](CC(N)=O)NC(=O)c1ccc2ccccc2n1)C(=O)NC(C)(C)C,p24,PR-L10R M46I L63P V82T,NL4-3,MT-4,2
CCc1c(Sc2ccccn2)n(COCc2ccccc2)c(=O)[nH]c1=O,cytopathic effect / XTT,RT-V179D,NL4-3,CEM + CEM-SS,7.78
Cc1cn([C@H]2C=C[C@@H](CO)O2)c(=O)[nH]c1=O,-,RT-S68G Q151M T215Y,RT-68G 151M 215Y,-,23
CN[C@H]1CO[C@@H]2OCC[C@H](OC(=O)N[C@@H](Cc3ccccc3)[C@H](O)CN(CC(C)C)S(=O)(=O)c3ccc4nc(NC5CC5)sc4c3)[C@@H]21,p24 / luminescence,L10F K20T D30N K45I A71V V77I,NL4-3,MT-4,0.6
C[C@H](Cn1cnc2c(N)ncnc21)OCP(=O)(O)O,cytopathic effect / XTT,RT-K65R H221Y,Site-directed mutant,MT-2,3.6
Cc1cn([C@H]2C[C@H](N=[N+]=[N-])[C@@H](CO)O2)c(=O)[nH]c1=O,cytopathic effect,RT-L100V K103R/K Y188H,B-1 (RT L100V K103R/K Y188H),CEM,2
Nc1ncnc2c1ncn2CCOCP(=O)(O)O,syncytia,RT-E138K,IIIB TSAO-T(RT-E138K),CEM,2.14
O=C1O[C@H]2[C@@H]3OC(=O)c4cc(O)c(O)c(O)c4-c4c(cc(O)c(O)c4O)C(=O)OC[C@H]2O[C@@H](OC(=O)c2cc(O)c(O)c(O)c2)[C@@H]3OC(=O)c2cc(O)c(O)c3c2[C@@H]2C1=CC(=O)[C@](O)(O3)C2(O)O,-,RT-M184V,NRTI resistant (RT M184V) ARP145,MAGI,1.28
C/C=C/CSc1cc(NC(=S)c2ccsc2C)ccc1Cl,cytopathic effect / XTT,RT-L100I,Oxathiin carboxanilide-resistant RT L100I,CEM + CEM-SS,>10
COc1ccc2c(c1)N(C(=O)OC(C)C)[C@@H](CSC)C(=S)N2,p24,RT-L74V G190E,A2(RT-L74V G190E),H9,>1430
Cc1ccnc2c1NC(=O)c1cccnc1N2C1CC1,plaque count,RT-L74V,HXB2,HT4 + HT4 LacZ-1,0.833
CC(C)CN(C[C@@H](O)[C@H](Cc1ccccc1)NC(=O)O[C@H]1CCOC1)S(=O)(=O)c1ccc(N)cc1,p24 / ELISA,K112M K113E V128I M200I H219P,IIIB,MT-2,1.1
CC(C)(C)NC(=O)[C@@H]1C[C@@H]2CCCC[C@@H]2CN1C[C@@H](O)[C@H](Cc1ccccc1)NC(=O)[C@H](CC(N)=O)NC(=O)c1ccc2ccccc2n1,p24,PR-L10R M46I L63P 184V,NL4-3,MT-4,4
CCc1c(C(=O)c2cc(C)cc(C)c2)n(CC2CC=CC2)c(=O)[nH]c1=O,cytopathic effect / XTT,RT-V108I,NL4-3,CEM + CEM-SS,1.5
Cc1cn([C@H]2C[C@H](N=[N+]=[N-])[C@@H](CO)O2)c(=O)[nH]c1=O,cytopathic effect / XTT,RT-D67N K70R T215Y K219Q,NL4-3(RT-4XAZT),CEM + CEM-SS,800
CC(=O)c1ccc(C)cc1NC(C(N)=O)c1c(Cl)cccc1Cl,MTT,RT-V189I T240I,IIIB,MAGI,40

Repeating the final 7 entries:

smiles,read by,changes,strain or isolate,cell line,result
COc1ccc2c(c1)N(C(=O)OC(C)C)[C@@H](CSC)C(=S)N2,p24,RT-L74V G190E,A2(RT-L74V G190E),H9,>1430
Cc1ccnc2c1NC(=O)c1cccnc1N2C1CC1,plaque count,RT-L74V,HXB2,HT4 + HT4 LacZ-1,0.833
CC(C)CN(C[C@@H](O)[C@H](Cc1ccccc1)NC(=O)O[C@H]1CCOC1)S(=O)(=O)c1ccc(N)cc1,p24 / ELISA,K112M K113E V128I M200I H219P,IIIB,MT-2,1.1
CC(C)(C)NC(=O)[C@@H]1C[C@@H]2CCCC[C@@H]2CN1C[C@@H](O)[C@H](Cc1ccccc1)NC(=O)[C@H](CC(N)=O)NC(=O)c1ccc2ccccc2n1,p24,PR-L10R M46I L63P 184V,NL4-3,MT-4,4
CCc1c(C(=O)c2cc(C)cc(C)c2)n(CC2CC=CC2)c(=O)[nH]c1=O,cytopathic effect / XTT,RT-V108I,NL4-3,CEM + CEM-SS,1.5
Cc1cn([C@H]2C[C@H](N=[N+]=[N-])[C@@H](CO)O2)c(=O)[nH]c1=O,cytopathic effect / XTT,RT-D67N K70R T215Y K219Q,NL4-3(RT-4XAZT),CEM + CEM-SS,800
CC(=O)c1ccc(C)cc1NC(C(N)=O)c1c(Cl)cccc1Cl,MTT,RT-V189I T240I,IIIB,MAGI,40